Reference: PMC12794095, “Quinazolinones as Bioisosteres of Naphthoquinones: A Path to Potent HsDHODH Inhibitors with Optimized Properties” (ACS Medicinal Chemistry Letters, 2025)

System: SARS-CoV-2
Assay: SARS-CoV-2 replication inhibition in Calu-3 cells, viral titers by plaque assay
Assay type: cell-based

O=c1[nH]c(Nc2cccc(-c3ccccc3)c2)nc2ccccc12 [Compound 10e]
greater potency in suppressing viral replication compared to Brequinar (SARS-CoV-2, Calu-3, identical assay conditions): approximately 5 fold
enhancement in antiviral activity compared to lapachol (SARS-CoV-2 EC50 versus lapachol EC50 = 1.5 ± 0.1 μM): 10 fold
SI (selectivity index, Calu-3 cells): 234

Which two values form the index is not stated here.
